Residue numbers refer to the chain shown, from its start. Names may count otherwise.
B1: myc-tagged human PDGFRα (wild type) on Expi293F cells, P16234-1 L137K (protein)
chain: QLSLPSILPNENEKVVQLNSSFSLRCFGESEVSWQYPMSEEESSDVEIRNEENNSGLFVTVLEVSSASAAHTGLYTCYYNHTQTEENELEGRHIYIYVPDPDVAFVPLGMTDYKVIVEDDDSAIIPCRTTDPETPVTLHNSEGVVPASYDSRQGFNGTFTVGPYICEATVKGKKFQTIPFNVYALKATSELDLEMEALKTVYKSGETIVVTCAVFNNEVVDLQWTYPGEVKGKGITMLEEIKVPSIKLVYTLTVPEATVKDSGDYECAARQATREVKEMKKVTISVHEKGFIEIKPTFSQLEAVNLHEVKHFVVEVRAYPPPRISWLKNNLTLIENLTEITTDVEKIQEIRYRSKLKLIRAKEEDSGHYTIVAQNEDAVKSYTFELLTQVPSSILDLVDDHHGSTGGQTVRCTAEGTPLPDIEWMICKDIKKCNNETSWTILANNVSNIITEIHSRDRSTVEGRVTFAKVEETIAVRCLAKNLLGAENRELKLVAPTLRSELTVAAAVLVLLVIVIISLIVLVVIWKQKPRYEIRWRVIESISPDGHEYIYVDPMQLPYDSRWEFPRDGLVLGRVLGSGAFGKVVEGTAYGLSRSQPVMKVAVKMLKPTARSSEKQALMSELKIMTHLGPHLNIVNLLGACTKSGPIYIITEYCFYGDLVNYLHKNRDSFLSHHPEKPKKELDIFGLNPADESTRSYVILSFENNGDYMDMKQADTTQYVPMLERKEVSKYSDIQRSLYDRPASYKKKSMLDSEVKNLLSDDNSEGLTLLDLLSFTYQVARGMEFLASKNCVHRDLAARNVLLAQGKIVKICDFGLARDIMHDSNYVSKGSTFLPVKWMAPESIFDNLYTTLSDVWSYGILLWEIFSLGGTPYPGMMVDSTFYNKIKSGYRMAKPDHATSEVYEIMVKCWNSEPEKRPSFYHLSEIVENLLPGQYKKSYEKIHLDFLKSDHPAVARMRVDSDNAYIGVTYKNEEDKLKDWEGGLDEQRLSADSGYIIPLPDIDPVPEEEDLGKRNRHSSQTSEESAIETGSSSSTFIKREDETIEDIDMMDDIGIDSSDLVEDSFL
B2: myc-tagged human PDGFRα (wild type) on Expi293F cells, P16234-1 V242K (protein)
chain: B1 chain with K114L, V219K
B3: myc-tagged human PDGFRα (wild type) on Expi293F cells, P16234-1 Y206S (protein)
chain: B1 chain with K114L, Y183S
B4: myc-tagged human PDGFRα (wild type) on Expi293F cells, P16234-1 L137Q (protein)
chain: B1 chain with K114Q
B5: myc-tagged human PDGFRα (wild type) on Expi293F cells, P16234-1 V242T (protein)
chain: B1 chain with K114L, V219T

target: soluble HCMV glycoprotein trimer gH/gL/gO-sfGFP, strain Merlin; assay: flow cytometry on cells; settings: chain shown with the change; absence of PDGFs; Merlin gH/gL/gO-sfGFP containing medium (1/3 dilution); parent: est. 1.0; read off a plot

Point of comparison: B4, ratio to parent 0.94. Against it:
- B1 — lower, 0.85
- B2 — the same, 0.94
- B3 — lower, 0.86
- B5 — lower, 0.8

same assay, conditions: chain shown with the change; presence of PDGFs (100 nM PDGF); Merlin gH/gL/gO-sfGFP containing medium (1/3 dilution); parent: est. 0.23; read off a plot

Point of comparison: B5, ratio to parent 0.74. Against it:
- B1 — higher, 0.9
- B2 — higher, 0.94
- B3 — higher, 0.83
- B4 — lower, 0.65

Reference: article PMC7329128
